The exact form of at least one protein or probe is not confirmed.
How the values were obtained:
[1] = target: DosR-C (Mycobacterium tuberculosis) (UniProt P9WMF9); experiment: ITC; settings: ITC: 20 mM Tris pH 8.0, 200 mM NaCl, 25 C, recombinant protein, residues 144-217, protein details: C-terminal His6 (primer PTD2), label: none (ethidium bromide stain)
[2] = target: DosR (DosRwt) (Mycobacterium tuberculosis) (UniProt P9WMF9); experiment: ITC; settings: ITC: 20 mM Tris pH 8.0, 200 mM NaCl, 25 C, recombinant protein, residues 1-217, label: none (ethidium bromide stain)

Chains of the proteins cited; added tags and fusions are not shown. Residues count along the entry.
UniProt P9WMF9, 144-217: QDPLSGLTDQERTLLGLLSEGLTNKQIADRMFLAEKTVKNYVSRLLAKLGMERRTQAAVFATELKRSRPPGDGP
UniProt P9WMF9, whole entry: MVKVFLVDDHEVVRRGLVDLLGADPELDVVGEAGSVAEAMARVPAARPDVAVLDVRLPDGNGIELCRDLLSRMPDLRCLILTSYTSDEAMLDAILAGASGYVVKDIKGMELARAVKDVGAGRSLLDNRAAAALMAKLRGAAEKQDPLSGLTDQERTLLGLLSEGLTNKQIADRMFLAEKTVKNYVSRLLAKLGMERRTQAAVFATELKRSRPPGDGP

TTGGGGACTAAAGTCCCTAA (double strand) [20-bp DosR regulon consensus DNA (EM1/EM2)]
Kd [1]: 520 nM
Kd [2]: 3170 nM
